# Measured data: PubChem BioAssay AID504761 (Drosophila RNAi Screening Center, 2011)
# Purpose: 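Insect host genes that dengue virus relies on to spread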 (primary screen)
# Cells: D.Mel-2 cells from Drosophila
# Knock-down reagent: long dsRNA against Drosophila genes
# Conditions: infection with dengue virus type 2; dose and infection time not stated
# Measurement: 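Cells stained for dengue envelope protein and imaged; percent of infected cells per well on duplicate plates, ranked by infection, with stained nuclei counted for cell number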
# Direction: infection score: higher = more virus-infected cells; cell count: higher = more cells in the well
# Hit rule: 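Low infection ranks in the two replicates (chance level up to 0.065) followed by a retest with a 1.5-fold or larger significant decrease, p below 0.05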
# Meaning of the calls: active = confirmed: knock-down lowers infection; inactive = not picked or not confirmed
# The screen tested about 22,000 reagents; below is an unselected part of those with a known target gene and a result. Of all reagents, 116 (0.52%) were called active. 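Calls depend on retest data that are not deposited; infection was ranked per plate without normalising between plates; the unit of the infection score is not given.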 Raw values are not corrected between plates. Names joined by + are all predicted targets of the reagent. Not all columns of the deposit are shown. Reagent sequences are not shown. Not given: the amount of reagent, the time to read-out.
target gene,amplicon,"infection score, replicate 1","infection score, replicate 2","cell count, replicate 1",Call
Syp (GeneID 42460),DRSC13444,2.28,1.93,6187,inactive
Syp (GeneID 42460),DRSC15286,10.1,11.2,6541,inactive
Syp (GeneID 42460),DRSC29126,,5.03,390,inactive
CG2991 (GeneID 33488),DRSC00559,4.35,2.06,5982,inactive
CG2991 (GeneID 33488),DRSC26300,12.7,5.75,5273,inactive
CG13408 (GeneID 42597),DRSC13534,2.66,2,6004,inactive
CG13408 (GeneID 42597),DRSC14584,2.74,0.44,6686,inactive
bsd (GeneID 36302),DRSC05953,12.9,9.42,3945,inactive
CG42399 (GeneID 33176),DRSC00322,3.4,1.8,6743,inactive
CG42399 (GeneID 33176),DRSC00661,2.63,2.86,6455,inactive
CG17580 (GeneID 50228),DRSC06683,10.8,17.6,6387,inactive
CG17580 (GeneID 50228),DRSC27009,20.1,9.02,6701,inactive
Rhau (GeneID 35339),DRSC03200,11.7,6.35,5255,inactive
Rhau (GeneID 35339),DRSC27042,3.86,8.26,6509,inactive
RpL28 + snoRNA:Or-CD12,DRSC08293,1.3,4.62,3930,inactive
CG6805 (GeneID 36911),DRSC07011,13.7,17.6,6173,inactive
CG6805 (GeneID 36911),DRSC29352,16.1,9,3524,inactive
htt (GeneID 43392),DRSC16970,3.36,3.17,5620,inactive
BCL7-like (GeneID 31890),DRSC17729,3.73,1.62,6857,inactive
BCL7-like (GeneID 31890),DRSC29657,,19.2,387,inactive
Pfas (GeneID 33847),DRSC03480,6.44,5.37,6305,inactive
Gr59e (GeneID 37725),DRSC04276,0.24,7.78,409,inactive
CG6763 (GeneID 42754),DRSC16110,3.48,3.41,689,inactive
CG6763 (GeneID 42754),DRSC24299,6.44,7.46,6394,inactive
Oamb (GeneID 43982),DRSC13433,0.86,0.08,6052,inactive
Oamb (GeneID 43982),DRSC15120,3.13,2.51,6527,inactive
Oamb (GeneID 43982),DRSC16763,1.06,3.19,6589,inactive
CG6665 (GeneID 36903),DRSC07006,10.1,7.13,6587,inactive
CG14252 (GeneID 43238),DRSC14747,3.39,1.67,6402,inactive
CG14892 (GeneID 42016),DRSC15014,2.89,3.92,6398,inactive
Spn43Ad (GeneID 35639),DRSC06770,4.1,1.55,6419,inactive
Mdr50 (GeneID 36582),DRSC07467,18,15.4,6575,inactive
Mdr50 (GeneID 36582),DRSC23705,4.92,2.45,6255,inactive
Tmem63 (GeneID 35779),DRSC06063,2.29,9.84,6363,inactive
Tmem63 (GeneID 35779),DRSC27402,2.19,8.96,6564,inactive
CG15452 (GeneID 33061),DRSC20523,16,13.3,5729,inactive
CG14107 (GeneID 39498),DRSC10110,2.16,0.72,5454,inactive
CG14107 (GeneID 39498),DRSC25136,6.07,5.52,6826,inactive
Ir7f (GeneID 7354418),DRSC18012,7.04,8.24,5967,inactive
CG14297 (GeneID 42260),DRSC14776,10.5,0.57,4952,inactive
pelo (GeneID 34286),DRSC03588,5.23,3.35,5962,inactive
TBC1D16 (GeneID 34431),DRSC02841,7.31,4.85,6433,inactive
CG14882 (GeneID 41994),DRSC15006,12.8,6.73,6195,inactive
CG14882 (GeneID 41994),DRSC28318,2.75,15.8,908,inactive
Neurl4 (GeneID 39558),DRSC10638,3.41,4.45,6807,inactive
gem (GeneID 36064),DRSC06093,4.45,6.47,6200,inactive
gem (GeneID 36064),DRSC06847,14,11.4,3295,inactive
mbo (GeneID 41562),DRSC16123,6.07,27.3,972,inactive
CG9447 (GeneID 35597),DRSC05008,8.22,4.71,3323,inactive
CG5644 (GeneID 39029),DRSC10531,1.31,3.05,6555,inactive
tow (GeneID 38755),DRSC23125,0.65,2.37,6319,inactive
tow (GeneID 38755),DRSC26759,2.34,11.4,6277,inactive
CG11668 (GeneID 41606),DRSC14341,1.15,6.65,6611,inactive
CG31810 (GeneID 318955),DRSC01560,2.09,0.41,6447,inactive
CG6481 (GeneID 32843),DRSC19995,18,2.91,5996,inactive
OtopLb (GeneID 33539),DRSC00594,6.46,6.55,5292,inactive
OtopLb (GeneID 33539),DRSC27337,10.1,6.52,6764,inactive
Lsm10 (GeneID 36141),DRSC06250,2.95,5.34,7231,inactive

No new results follow: 8 of the entries above.
target gene,amplicon,"infection score, replicate 1","infection score, replicate 2","cell count, replicate 1",Call
mbo (GeneID 41562),DRSC16123,6.07,27.3,972,inactive
CG9447 (GeneID 35597),DRSC05008,8.22,4.71,3323,inactive
CG5644 (GeneID 39029),DRSC10531,1.31,3.05,6555,inactive
tow (GeneID 38755),DRSC23125,0.65,2.37,6319,inactive
tow (GeneID 38755),DRSC26759,2.34,11.4,6277,inactive
CG11668 (GeneID 41606),DRSC14341,1.15,6.65,6611,inactive
CG31810 (GeneID 318955),DRSC01560,2.09,0.41,6447,inactive
CG6481 (GeneID 32843),DRSC19995,18,2.91,5996,inactive
